Results of unrelated studies side by side (data: NIAID ChemDB).

Common to all: tests in culture; agent: HIV-1; endpoint: EC50

Rows are shuffled and stem from different studies.

SMILES	changes	conditions	read by	cells	strain or isolate	result
COC(=O)c1cccc(Cn2ccc3ccc(-c4ccc5ccn(Cc6cccc(C(=O)O)c6)c5c4)cc32)c1	-	pseudotyped	luciferase / cell fusion	TZM-bl + HL2/3	HXB2	0.25 µM
COC(=O)[C@H](C)NP(=O)(OC[C@H]1CC[C@@H](n2ccc3c(N)ncnc32)C1)Oc1ccccc1	-	-	cytopathic effect / MTS	MT-4	-	>32 µM
CC(C)C1=C2[C@H]3CC[C@@H]4[C@@]5(C)CC[C@H](OC(=O)[C@H]6C[C@@H](C(=O)O)C6(C)C)C(C)(C)[C@@H]5CC[C@@]4(C)[C@]3(C)CC[C@@]2(CCNCCN2CCCCC2)CC1=O	-	-	p24 / ELISA	MT-2	92HT599	<1 µM
COC(=O)C(C)(C)NP(=O)(OC[C@H]1C=C[C@@H](n2ccc3c(N)ncnc32)C1)Oc1ccccc1	-	-	cytopathic effect / MTS	MT-4	-	0.3 µM
Cc1cc(S(N)(=O)=O)ccc1NC(=O)COc1ccc(Cl)cc1C(=O)c1cc(F)cc(F)c1	RT-V106A Y181C	-	β-galactosidase	HeLa + HELA CD4+	HXB2	0.011–0.1 µM
CC(C)C1=C2[C@H]3CC[C@@H]4[C@@]5(C)CC[C@H](OC(=O)[C@H]6C[C@@H](C(=O)O)C6(C)C)C(C)(C)[C@@H]5CC[C@@]4(C)[C@]3(C)CC[C@@]2(CCNCc2ccc(Cl)cc2OCCN2CCCCC2)CC1=O	-	-	p24 / ELISA	MT-2	92HT599	<1 µM
Cc1nnc(-c2cccc(-c3cccc(C(=O)N4CCCCC4)c3)c2)o1	-	pseudotyped	luminescence	TZM-bl	BJOX2000	>30 µM
Cc1cc(=O)c2c(O)c3c(O)cc(O)c4c5c(O)cc(O)c6c(O)c7c(=O)cc(C)c8c1c2c(c34)c(c65)c78	-	-	cytopathic effect / p24 / ELISA	CEM	LAV-1	<1 µg/mL
COc1ccc(CNC[C@H](O)[C@@]23CC[C@]4(C)[C@H](CC[C@@H]5[C@@]6(C)CC[C@H](OC(=O)[C@H]7C[C@@H](C(=O)O)C7(C)C)C(C)(C)[C@@H]6CC[C@]54C)C2=C(C(C)C)C(=O)C3)cc1	-	-	p24 / ELISA	MT-2	92HT599	<1 µM
COC(=O)C(C)(C)NP(=O)(OC[C@@H]1C=C[C@H](n2ccc3c(N)ncnc32)C1)Oc1ccccc1	-	-	cytopathic effect / MTS	MT-4	-	>490 µM
c1cc2nc(Cc3nc4ccc(C5=N[C@@H]6CCCC[C@@H]6N5)cc4[nH]3)[nH]c2cc1C1=N[C@@H]2CCCC[C@@H]2N1	-	-	cytopathic effect / propidium iodide	MT-4	IIIB	4.8 µM
CC(C)C1=C2[C@H]3CC[C@@H]4[C@@]5(C)CC[C@H](OC(=O)[C@H]6C[C@@H](C(=O)O)C6(C)C)C(C)(C)[C@@H]5CC[C@@]4(C)[C@]3(C)CC[C@@]2(CCNCC2(NC(=O)c3ccc(Cl)cc3)CNC2)CC1=O	-	-	p24 / ELISA	MT-2	92HT599	<1 µM
COC(=O)[C@H](C)NP(=O)(OC[C@H]1CC[C@@H](n2cnc3c(N)ncnc32)C1)Oc1ccccc1	-	-	cytopathic effect / MTS	MT-4	-	18 µM
CC(C)(C)[Si](C)(C)OC[C@H]1O[C@@H](n2ccc(=O)[nH]c2=O)[C@H](O[Si](C)(C)C(C)(C)C)/C1=C/CO	-	-	cytopathic effect / trypan blue	MT-4	IIIB	>2 µM
Cc1cc(S(N)(=O)=O)ccc1NC(=O)COc1ccc(Cl)cc1C(=O)c1cc(Cl)cc(C#N)c1	RT-P225H	-	β-galactosidase	HeLa + HELA CD4+	HXB2	<0.01 µM
O=S(=O)(O)c1ccc(-c2c3nc(c(-c4ccc(S(=O)(=O)O)cc4)c4ccc([nH]4)c(-c4ccc(S(=O)(=O)O)cc4)c4nc(c(-c5ccc(S(=O)(=O)O)cc5)c5ccc2[nH]5)C=C4)C=C3)cc1	-	-	cell fusion / fluorescence	MT-2	IIIB	>10 µg/mL
COc1c(-c2cc(C)on2)c(O)c(S(=O)(=O)Oc2ccc(F)cc2)c2occc12	-	-	cytopathic effect / MTS	CEM-SS	RF	0.000051 µM
O=C(O)CCC1=C(CC(=O)O)c2cc3nc(cc4[nH]c(cc5[nH]c(cc1n2)c(CC(=O)O)c5CCC(=O)O)c(CC(=O)O)c4CCC(=O)O)C(CC(=O)O)=C3CCC(=O)O	-	-	cell fusion / fluorescence	MT-2	IIIB	>10 µg/mL
COc1c(C(=O)/C=C(/C)Nc2ccccc2)c(O)c(S(=O)(=O)Oc2ccc(F)cc2)c2occc12	-	-	cytopathic effect / MTS	CEM-SS	RF	0.000063 µM
Cc1cc(C)cc(C(=O)c2cc(Cl)ccc2OCC(=O)Nc2ccc(S(N)(=O)=O)cc2C)c1	RT-K103N Y181C	-	β-galactosidase	HeLa + HELA CD4+	HXB2 (RT-K103N Y181C) Recombinant	<0.01 µM
c1cc2nc(Cc3nc4ccc(C5=N[C@@H]6CCCC[C@H]6N5)cc4[nH]3)[nH]c2cc1C1=N[C@@H]2CCCC[C@H]2N1	-	-	cytopathic effect / propidium iodide	MT-4	IIIB	3.9 µM
CC(C)(C)[Si](C)(C)OC[C@H]1O[C@@H](n2ccc(=O)[nH]c2=O)[C@H](O[Si](C)(C)C(C)(C)C)[C@]12O[C@@H]2CO	-	-	cytopathic effect / trypan blue	MT-4	IIIB	>10 µM
Cc1cc(S(N)(=O)=O)ccc1NC(=O)COc1ccc(Cl)cc1C(=O)c1cccc(C#N)c1	RT-P236L	-	β-galactosidase	HeLa + HELA CD4+	HXB2	0.011–0.1 µM
Cc1cn([C@H]2C[C@H](N=[N+]=[N-])[C@@H](CO)O2)c(=O)[nH]c1=O	-	-	cell fusion / fluorescence	MT-2	IIIB	>10 µg/mL
Cc1cc2[nH]cnc2cc1NC(=O)COc1ccc(Cl)cc1C(=O)c1cc(F)cc(C(F)(F)F)c1	RT-Y188C	-	β-galactosidase	HeLa + HELA CD4+	HXB2	<0.01 µM
CC1(C)CN=C(c2ccc3nc(Cc4nc5ccc(C6=NCC(C)(C)CN6)cc5[nH]4)[nH]c3c2)NC1	-	-	cytopathic effect / propidium iodide	MT-4	IIIB	9.6 µM
COC(=O)[C@H](C)NP(=O)(OC[C@@H]1CC[C@H](n2ccc3c(N)ncnc32)C1)Oc1ccccc1	-	-	cytopathic effect / MTS	MT-4	-	9.3 µM
Cc1cn([C@@H]2O[C@H](CO[Si](C)(C)C(C)(C)C)C3(O[C@H]3C(=O)NN)[C@H]2O[Si](C)(C)C(C)(C)C)c(=O)[nH]c1=O	-	-	cytopathic effect / trypan blue	MT-4	IIIB	>10 µM
Cc1cc(OCCCS(N)(=O)=O)ccc1NC(=O)COc1ccc(Cl)cc1C(=O)c1cc(F)cc(C(F)(F)F)c1	RT-G190A	-	β-galactosidase	HeLa + HELA CD4+	HXB2	<0.01 µM
CC(C)(C)C1=NC(c2ccccc2)(C(F)(F)F)NC(=O)N1	-	pseudotyped	luciferase / reporter gene / single cycle	MT-4	NL4-3	0.0465 µM
COc1c(C(=O)/C=C(/C)Nc2ccc(Cl)cc2)c(O)c(S(=O)(=O)OC2CCCC2)c2occc12	-	-	cytopathic effect / MTS	CEM-SS	RF	0.000062 µM
O=C(NCc1ccc(F)cc1F)c1cn2c(c(O)c1=O)C(=O)N1C3CCC(C3)OC1C2	-	0% human serum	GFP	MT-4	NL4-3	0.002 µM
C=CCN=C(N)c1ccc2nc(Cc3nc4ccc(C(N)=NCC=C)cc4[nH]3)[nH]c2c1	-	-	cytopathic effect / propidium iodide	MT-4	IIIB	9.6 µM
COc1ccc(N/C(C)=C\C(=O)c2c(O)c(S(=O)(=O)Oc3ccc([N+](=O)[O-])cc3)c3occc3c2OC)cc1	-	-	cytopathic effect / MTS	CEM-SS	RF	0.000065 µM
C=Cc1c(C)c2cc3nc(c(CC(=O)O)c4nc(cc5[nH]c(cc1[nH]2)c(C)c5CC)C(C)=C4C(=O)O)[C@@H](CCC(=O)O)[C@@H]3C	-	-	cell fusion / fluorescence	MT-2	IIIB	>10 µg/mL
COc1c(C(=O)/C=C(/C)Nc2ccccc2)c(O)c(S(=O)(=O)OC2CCCCC2)c2occc12	-	-	cytopathic effect / MTS	CEM-SS	RF	0.000074 µM
CC(C)C1=C2[C@H]3CC[C@@H]4[C@@]5(C)CC[C@H](OC(=O)[C@H]6C[C@@H](C(=O)O)C6(C)C)C(C)(C)[C@@H]5CC[C@@]4(C)[C@]3(C)CC[C@@]2(CC(=O)NCc2ccc3nc(-c4ccccc4)[nH]c3c2)CC1=O	-	-	p24 / ELISA	MT-2	92HT599	<1 µM
COc1c(-c2cc(C)n(C)n2)c(O)c(S(=O)(=O)Oc2ccc([N+](=O)[O-])cc2)c2occc12	-	-	cytopathic effect / MTS	CEM-SS	RF	0.000034 µM
CC(C)C1=C2[C@H]3CC[C@@H]4[C@@]5(C)CC[C@H](OC(=O)[C@H]6C[C@@H](C(=O)O)C6(C)C)C(C)(C)[C@@H]5CC[C@@]4(C)[C@]3(C)CC[C@@]2([C@@H](O)CNC(=O)C(C)(C)NC(=O)c2ccc(Cl)cc2OCCN(C)C)CC1=O	-	-	p24 / ELISA	MT-2	92HT599	<1 µM
CCc1cc(C#N)cc(C(=O)c2cc(Cl)ccc2OCC(=O)Nc2ccc(S(N)(=O)=O)cc2C)c1	RT-K103N	-	β-galactosidase	HeLa + HELA CD4+	HXB2	<0.01 µM
C[C@H](NP(=O)(OC[C@@H]1C=C[C@H](n2ccc3c(N)ncnc32)C1)Oc1ccccc1)C(=O)OCc1ccccc1	-	-	cytopathic effect / MTS	MT-4	-	>78 µM

The last 4 rows once more:

SMILES,changes,conditions,read by,cells,strain or isolate,result
COc1c(-c2cc(C)n(C)n2)c(O)c(S(=O)(=O)Oc2ccc([N+](=O)[O-])cc2)c2occc12,-,-,cytopathic effect / MTS,CEM-SS,RF,0.000034 µM
CC(C)C1=C2[C@H]3CC[C@@H]4[C@@]5(C)CC[C@H](OC(=O)[C@H]6C[C@@H](C(=O)O)C6(C)C)C(C)(C)[C@@H]5CC[C@@]4(C)[C@]3(C)CC[C@@]2([C@@H](O)CNC(=O)C(C)(C)NC(=O)c2ccc(Cl)cc2OCCN(C)C)CC1=O,-,-,p24 / ELISA,MT-2,92HT599,<1 µM
CCc1cc(C#N)cc(C(=O)c2cc(Cl)ccc2OCC(=O)Nc2ccc(S(N)(=O)=O)cc2C)c1,RT-K103N,-,β-galactosidase,HeLa + HELA CD4+,HXB2,<0.01 µM
C[C@H](NP(=O)(OC[C@@H]1C=C[C@H](n2ccc3c(N)ncnc32)C1)Oc1ccccc1)C(=O)OCc1ccccc1,-,-,cytopathic effect / MTS,MT-4,-,>78 µM

ECn is the concentration giving n% inhibition of infection, replication or growth. Two numbers with a dash give a range or band. Blank or dashed fields: not listed here.